We go through one substance from patent US20260102503A1, “NANOCOMPOSITES FOR ENHANCED CELLULAR PAYLOAD DELIVERY” (priority 2022, published 2026).

The data set in a line: Conjugation efficiency of nanofibers onto PLGA nanoparticles. The class given is physicochemical. The following applies: 2 mg PLGA nanoparticles.

For “K9A5(QW)6 (KKKKKKKKKAAAAAQWQWQWQWQWQW) [K9A5(QW)6 (SEQ ID NO: 5), peptide nanofiber group compared for conjugation efficiency]”, the Conjugation efficiency is 25.5% (0.25 mg total mass of nanofiber used) and 24.7% (0.50 mg total mass of nanofiber used).
